{
  "source": "ChEMBL document CHEMBL4303087",
  "about": "“Broad anti-coronaviral activity of FDA approved drugs against SARS-CoV-2 in vitro and SARS-CoV in vivo” (2020)",
  "system": "Vero C1008",
  "conditions": "chlorocebus sabaeus, vero c1008, 72 h",
  "data": [
    {"smiles": "COc1ccc(C[C@H]2NC[C@H](O)[C@H]2OC(C)=O)cc1", "note": "[ANISOMYCIN]", "values": [
      {"measurement": "CC50", "result": "< 390", "unit": "nM"}
    ]}
  ]
}
